Laboratory results from ChEMBL document CHEMBL1132687, “Synthesis and enantiopharmacology of new AMPA-kainate receptor agonists” (J Med Chem, 1999).
Values joined by “and” are separate entries in the source; they are usually repeats but may differ in a detail not shown here. Identical values can stand only once.

Test: The potency ratio is the ratio between the CD50 value of the drug in the presence of an antagonist versus its CD50 value.

SMILES	Potency ratio
C=C(C)[C@H]1CN[C@H](C(=O)O)[C@H]1CC(=O)O.NS(=O)(=O)c1cccc2c3c(cc([N+](=O)[O-])c12)=CC(=O)C(=O)C=3	14.6
C=C(C)[C@H]1CN[C@H](C(=O)O)[C@H]1CC(=O)O.O=C(O)C1CN(CCCP(=O)(O)O)CCN1 (stereo unspecified)	2.2
CC1=NN=C(c2ccc(N)cc2)c2cc3c(cc2C1)OCO3.Cc1onc(O)c1C[C@H](N)C(=O)O	5.5
C=C(C)[C@H]1CN[C@H](C(=O)O)[C@H]1CC(=O)O.CC1=NN=C(c2ccc(N)cc2)c2cc3c(cc2C1)OCO3	7.2
Cc1onc(O)c1C[C@H](N)C(=O)O.O=C(O)C1CN(CCCP(=O)(O)O)CCN1 (stereo unspecified)	1.5
O=C(O)C1=NO[C@H]2[C@@H]1CN[C@@H]2C(=O)O.O=C(O)C1CN(CCCP(=O)(O)O)CCN1 (stereo unspecified)	2.4 and 3.4
NS(=O)(=O)c1cccc2c3c(cc([N+](=O)[O-])c12)=CC(=O)C(=O)C=3.O=C(O)C1=NO[C@H]2[C@@H]1CN[C@@H]2C(=O)O	3.6 and 1.3
CC1=NN=C(c2ccc(N)cc2)c2cc3c(cc2C1)OCO3.O=C(O)C1=NO[C@H]2CN[C@H](C(=O)O)[C@@H]12	18.5 and 6.2
Cc1onc(O)c1C[C@H](N)C(=O)O.NS(=O)(=O)c1cccc2c3c(cc([N+](=O)[O-])c12)=CC(=O)C(=O)C=3	5.4
CC1=NN=C(c2ccc(N)cc2)c2cc3c(cc2C1)OCO3.O=C(O)C1=NO[C@H]2[C@@H]1CN[C@@H]2C(=O)O	2.1 and 4.4
O=C(O)C1=NO[C@H]2CN[C@H](C(=O)O)[C@@H]12.O=C(O)C1CN(CCCP(=O)(O)O)CCN1 (stereo unspecified)	1.4
